# Percent effect of library compounds

Measurements from “University of Dundee, Small-Polar-MMV Screening Library” (2021), ChEMBL document CHEMBL3988442.

A: 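Whole-cell growth test on Mycobacterium tuberculosis, read after 3 days in glucose-containing 7H9 medium; the read-out is not stated. Concentration: 500 µM. Higher reads as more growth inhibition (inferred: compounds with an IC50 in retests scored well above the rest). Size under these conditions: about 18,000 compounds, about 1,400 of them at 50% or above in at least one test.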
B: 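Whole-cell growth test on Mycobacterium tuberculosis, read after 4 days in a medium based on cholesterol and the lipid DPPC; the read-out is not stated. Compounds at 500 µM. Direction is inferred from retests: higher values go with more growth inhibition. Of about 18,000 compounds tested this way, about 900 (5%) reached 50% or more in at least one test.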

Values are the deposited “Percent Effect”, in %.
How 0% and 100% were set is not recorded. Most values in the screen are low, and negative values occur.
The entries come from a sample that favours strong results.

Clc1ccc2c(c1)CNCCO2 read A: 45.17%; B: 63.03%.
Cc1nnc(CN(C)C(=O)CSCC2CC2)o1 read A: 14.41%.
NC(=O)C(Sc1nnc[nH]1)c1ccc(Br)cc1 (stereo unspecified) read A: 50.27%; B: 40.81%.
Cc1c[nH]c(CN(C)Cc2ccc(S(C)(=O)=O)cc2)n1 read A: 3.968%.
CCOC(C(=O)N(C)CC(N)=O)c1ccccc1 (stereo unspecified) read A: 53.51%; B: 8.826%.
CC(C)(N)c1ncc[nH]1 read A: 5.985%.
COC(=O)c1snc(-c2ccccc2)c1N read A: 30.26%; B: 49.91%.
CC(CNC(=O)Cn1cccn1)Sc1ccccc1 (stereo unspecified) read A: 75.76%; B: 71.63%.
O=C(CNC1=NCCN1)Nc1cccc(F)c1 read A: 28.47%.
CC(=O)c1ccc(-n2ccnn2)cc1 read B: -2.613%.
CC(=O)N1CCC(NC(=O)c2ccc(Br)o2)CC1 read A: 2.466%.
Cc1ccc(C(=O)NCc2ccc3c(c2)OCCO3)o1 read A: 76.36%; B: 72.46%.
N[C@@H]1C[C@H]1C(F)(F)F read B: 3.097%.
Cc1cccn2cc(CCNS(C)(=O)=O)nc12 read A: -3.124%.
O=C(NCCS(=O)(=O)N1CCSCC1)c1ccccc1 read A: -3.073%; B: 0.4997%.
CC(C)CC(=O)NC1CCN(C(C)C)CC1 read B: 23.48%.
CNc1cccnc1N1CCCC1 read A: 63.96%.
O=S(=O)(c1cccc2ncccc12)N1CCCC1 read A: 49.67%.
COc1ccccc1OCCN1CCN(CCO)CC1 read B: -4.525%.
Cn1cnc(S(=O)(=O)NCCc2cccnc2)c1Cl read B: -5.336%.
COC(=O)c1cncc(C(=O)NCCc2ccsc2)c1 read B: 24.32%.
C[C@@H](N)C(=O)NCc1cc2cc(Cl)ccc2[nH]1 read A: 22.03%.
CSc1nnc(CN)n1C read A: -4.686%.
CNCC(=O)Nc1ccc(F)cc1 read A: 13.22%.
CC1CCN(Cc2cc(=O)n3ccsc3n2)CC1 read B: -0.95%.
NCc1cc(C(F)(F)F)on1 read A: 6.089%.
O=C(Nc1ccc(F)cc1F)N(CCO)CCCO read B: -1.431%.
O=C(c1cc(C2CC2)on1)N1CCC2(CCOCC2)C1 read A: 57.49%; B: 45.58%.
COc1ccc(NC(=O)CCn2ccnc2)cc1 read A: 10.97%.

For reference, 2 entries once more:

{"structure": "NC(=O)C(Sc1nnc[nH]1)c1ccc(Br)cc1", "stereo": "stereo unspecified", "A": 50.27, "B": 40.81}
{"structure": "CNc1cccnc1N1CCCC1", "A": 63.96}